In US20260125356A1, “TREATMENT OF LEISHMANIASIS” (THE UNIVERSITY OF DURHAM, priority 2022, published 2026):

Tested on: HepG2 cells
Assay: HepG2 cytotoxicity dose response assay
Conditions: selectivity index HepG2 over L. major promastigotes
Description: Using a standard alamarBlue™ assay, activity and selectivity were assessed using L. major promastigotes and HepG2 cells, respectively.
All steps were carried out under sterile conditions. HepG2 cells were thawed rapidly into DMEM. Cells were grown at 37° C., 5% CO2 for >5 days in T-75 CytoOne® Flask, TC-Treated, Vented flasks (Starlab) in a Sanyo MCO-18M incubator. […] The trypsin was deactivated by addition of DMEM. The cells were homogenised and 5 mL of cell culture was added to 20 mL fresh DMEM. Cells were split 1:4 every 3 days. Frozen stocks were prepared in the same way as the passage, but resuspended into DMEM with 10% DMSO, aliquoted into cryovials (Starlab) and cooled slowly to −150° C. for long term storage.
All steps were carried out under sterile conditions. 80-100% confluent HepG2 were plated into Corning™ Costar™ 96-Well Flat-Bottom Microplates (Fisher Scientific) by adding 200 μL of a homogenous dispersion of cells at a concentration of 0.6×10^5 cells mL^−1 before incubation at 37° C., 5% CO2 overnight. […] Cell-viability was determined using a BioTek™ FLx800 microplate reader with Gen5® 1.08 data analysis software (BioTek) by monitoring fluorescence emission (Nex 560/hem 590 nm). […]

Row | Structure (SMILES) | S.I. (HepG2/L. major)
1 | CNC(=O)c1ccsc1N(C)C(=O)c1ccc([N+](=O)[O-])s1 [Compound 48, N-methyl-2-(N-methyl-5′-nitrothiophene-2′-amido)thiophene-3-carboxamide] | 4.0 ± 0.9
2 | CNC(=O)c1ccsc1/N=C/c1ccc([N+](=O)[O-])s1 [Compound 50, N-methyl-2-[(E)-[(5′-nitrothiophen-2′-yl)methylidene]amino]thiophene-3-carboxamide] | 21.9 ± 0.8
